Data as given in PubChem BioAssay AID504761 (Drosophila RNAi Screening Center, 2011).
In all, the deposit lists about 22,000 reagents; this is a random part of those that have a named target and a result. In the full data, 116 (0.52%) are marked active. 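Calls depend on retest data that are not deposited; infection was ranked per plate without normalising between plates; the unit of the infection score is not given.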 Reagents against one gene are numbered here. Names joined by + are all predicted targets of the reagent. Not all columns of the deposit are shown. Not given: the amount of reagent, the time to read-out.

Test: 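Insect host genes that dengue virus relies on to spread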 (primary screen)
Cell system: D.Mel-2 cells from Drosophila
Reagent: long dsRNA against Drosophila genes
Challenge: infection with dengue virus type 2; dose and infection time not stated
Measurement: 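Cells stained for dengue envelope protein and imaged; percent of infected cells per well on duplicate plates, ranked by infection, with stained nuclei counted for cell number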
Reading the numbers: infection score: higher = more virus-infected cells
Hit rule: 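Low infection ranks in the two replicates (chance level up to 0.065) followed by a retest with a 1.5-fold or larger significant decrease, p below 0.05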
Calls: active = confirmed: knock-down lowers infection; inactive = not picked or not confirmed

Depletion of shf #1 came out at: infection score, replicate 1 = 2.84; inactive.
Against shf #2, the entry reads infection score, replicate 1 = 1.75; inactive.
For CG2260 #1 the deposit lists infection score, replicate 1 = 21.5; inactive.
After knock-down of CG2260 #2, the screen gave infection score, replicate 1 = 20.1; inactive.
Or59b scored infection score, replicate 1 = 4.99; inactive.
For CG2652 #1, the values are infection score, replicate 1 = 24; inactive.
After knock-down of CG2652 #2, the record shows infection score, replicate 1 = 2; inactive.
Against CG2652 #3, the values are infection score, replicate 1 = 2.45; inactive.
After knock-down of CG12377 (retired record) #1, the record shows infection score, replicate 1 = 11.8; inactive.
CG12377 (retired record) #2 scored infection score, replicate 1 = 14.3; inactive.

2 successive reagents from above, for reference:
Or59b | infection score, replicate 1 = 4.99; activity call = inactive
CG2652 #1 | infection score, replicate 1 = 24; activity call = inactive

The listing continues:
For MBD-R2 the deposit lists infection score, replicate 1 = 13.2; inactive.
With knock-down of Cth the results were infection score, replicate 1 = 7.68; inactive.
For spz5, the entry reads infection score, replicate 1 = 22.5; inactive.
With knock-down of Gpo1, the record shows infection score, replicate 1 = 11.7; inactive.
Against dah, the entry reads infection score, replicate 1 = 3.84; inactive.
Against EMC6, the values are infection score, replicate 1 = 0.87; inactive.
Ste:CG33238 + Ste:CG33241 + Ste:CG33236 + 11 more #1 showed infection score, replicate 1 = 1.48; inactive.
Ste:CG33238 + Ste:CG33241 + Ste:CG33236 + 11 more #2 gave infection score, replicate 1 = 2.62; inactive.
Against Ir68a the deposit lists infection score, replicate 1 = 2.41; inactive.
Knock-down of CaMKII gave: infection score, replicate 1 = 1.65; inactive.
Depletion of Polr3E #1 gave: infection score, replicate 1 = 8.99; inactive.
For Polr3E #2, the values are infection score, replicate 1 = 0.76; inactive.
